A mixed list of measured activities; the numbers were collected in NIAID ChemDB.

All rows: target-level tests; species: HIV-1; protein: Reverse transcriptase; measure: IC50

ICn: concentration for n% inhibition. Conditions beyond the fields shown may differ between rows.

{"structure": "Cn1cc(NC(=O)c2nc(NC(=O)/C=C/C(=O)Nc3cn(C)c(C(=O)Nc4cn(C)c(C(=O)NCCC(=N)N)n4)n3)cn2C)nc1C(=O)NCCC(=N)N", "method": "nucleotide incorporation", "value": "~150 µM"}
{"structure": "COc1cccc(-c2ccc(Oc3cc(=O)n(O)c(=O)n3C)cc2)c1", "method": "nucleotide incorporation / radiometric", "value": ">25 µM"}
{"structure": "Cc1c(C(=O)N2CCN(c3ncccc3NC(C)C)CC2)[nH]c2ccccc12", "method": "nucleotide incorporation", "value": "<100 µM"}
{"structure": "Cn1c(Nc2cccc(-c3ccc(C#N)cc3)c2)cc(=O)n(O)c1=O", "method": "nucleotide incorporation / radiometric", "value": "10 µM"}
{"structure": "COc1ccc2[nH]c(C(=O)N3CCN(c4ncccc4NC(C)C)CC3)cc2c1", "method": "nucleotide incorporation", "value": "<100 µM"}
{"structure": "Nc1ccn([C@H]2CC[C@@H](COP(=O)(O)OP(=O)(O)OP(=O)(O)O)O2)c(=O)n1", "mutations": "RT-F116Y", "method": "nucleotide incorporation / radiometric", "value": "0.042 µM"}
{"structure": "O=C(/C=C/c1cccn1Cc1ccc(F)cc1)CC(=O)C(=O)O", "method": "RT activity / nucleotide incorporation", "value": ">50 µM"}
{"structure": "Cn1cc(NC(=O)c2cc(NC(=O)c3cc(NC(=O)c4cc(C(=O)Nc5cc(C(=O)Nc6cc(C(=O)Nc7cc(C(=O)NCCC(=N)N)n(C)c7)n(C)c6)n(C)c5)cc(C(=O)Nc5cc(C(=O)Nc6cc(C(=O)Nc7cc(C(=O)NCCC(=N)N)n(C)c7)n(C)c6)n(C)c5)c4)cn3C)cn2C)cc1C(=O)NCCC(=N)N", "method": "nucleotide incorporation", "value": "~150 µM"}
{"structure": "COc1ccc(OC)c2c(=O)c(O)c[nH]c12", "method": "nucleotide incorporation", "value": ">100 µM"}
{"structure": "O=C1Nc2ccc(Cl)cc2C(C#CC2CCCCC2)(C(F)(F)F)O1", "strain or isolate": "A17", "mutations": "RT-K103N Y181C", "method": "nucleotide incorporation", "value": "0.21 µM"}
{"structure": "CCN1c2ncc(CCOc3ccc(-c4ccc[n+]([O-])c4)cc3C)cc2C(=O)N(C)c2cccnc21", "strain or isolate": "IIIB", "mutations": "RT-K103N Y181C", "method": "nucleotide incorporation / radiometric", "value": "<0.05 µM"}
{"structure": "Cc1cn([C@H]2C[C@H](N=[N+]=[N-])[C@@H](COP(=S)([S-])OP(=O)(O)C(F)(F)P(=O)(O)O)O2)c(=O)[nH]c1=O", "method": "fluorescence", "value": ">0.5 µM"}
{"structure": "CC(C)Nc1ccnnc1N1CCN(C(=O)c2cc3ccccc3[nH]2)CC1", "method": "nucleotide incorporation", "value": "<100 µM"}
{"structure": "Cn1cc(NC(=O)c2cc(NC(=O)c3cc(NC(=O)CCCCCCC(=O)Nc4cc(C(=O)Nc5cc(C(=O)Nc6cc(C(=O)NCCC(=N)N)n(C)c6)n(C)c5)n(C)c4)cn3C)cn2C)cc1C(=O)NCCC(=N)N", "method": "nucleotide incorporation", "value": ">400 µM"}
{"structure": "Cc1ccc(Cn2cccc2/C=C/C(=O)CC(=O)C(=O)O)c(C)c1", "method": "RT activity / nucleotide incorporation", "value": "25 µM"}
{"structure": "Nc1nc2c(ncn2[C@H]2CC[C@@H](COP(=O)(O)OP(=O)(O)OP(=O)(O)O)O2)c(=O)[nH]1", "mutations": "RT-A62V", "method": "nucleotide incorporation / radiometric", "value": "0.029 µM"}
{"structure": "COCC(C)Nc1cccnc1N1CCN(C(=O)c2cc3cc(F)ccc3[nH]2)CC1", "method": "nucleotide incorporation", "value": "<100 µM"}
{"structure": "CNC(=O)c1nc([C@]2(C)CSC([C@]3(C)CSC([C@]4(C)CSC(/C=C/c5ccccc5)=N4)=N3)=N2)oc1C", "method": "nucleotide incorporation", "value": "252 µM"}
{"structure": "C[C@@H]1Cc2c(-c3cc(-c4ccc5ccccc5c4O)c(O)c4ccccc34)c(O)cc(O)c2[C@@H](C)N1", "method": "nucleotide incorporation", "value": "1000 µM"}
{"structure": "CCN1c2ncc(CCOc3ccc(NC(=O)c4ccccc4C(=O)O)cc3C)cc2C(=O)N(C)c2cccnc21", "strain or isolate": "IIIB", "mutations": "RT-K103N Y181C", "method": "nucleotide incorporation / radiometric", "value": ">0.1 µM"}
{"structure": "Nc1ccn([C@@H]2O[C@H](COP(=O)(O)O[C@@H]3[C@H](O)[C@@H](COP(=O)(O)O[C@@H]4[C@H](O)[C@@H](COP(=O)(O)OP(=O)(O)O)O[C@H]4n4ccc(N)nc4=O)O[C@H]3n3ccc(N)nc3=O)[C@@H](O)[C@H]2O)c(=O)n1", "method": "nucleotide incorporation / radiometric", "value": "75 µM"}
{"structure": "O=C(c1cc2ccccc2[nH]1)N1CCN(c2ncccc2NCC2CC2)CC1", "method": "nucleotide incorporation", "value": "<100 µM"}
{"structure": "CCC(C)[C@@H]1N2Cc3c(c4ccccc4n3C(=O)OC(C)(C)C)C1(O)c1c(n(C(=O)OC(C)(C)C)c3ccccc13)C2", "method": "radiometric", "value": "~8 µM"}
{"structure": "COc1cccc(Cn2cccc2/C=C/C(=O)CC(=O)C(=O)O)c1", "method": "RT activity / nucleotide incorporation", "value": ">50 µM"}
{"structure": "Nc1ccn([C@@H]2O[C@H](COP(=O)(O)O[C@@H]3[C@H](O)[C@@H](COP(=O)(O)O[C@@H]4[C@H](O)[C@@H](CO)O[C@H]4n4ccc(N)nc4=O)O[C@H]3n3ccc(N)nc3=O)[C@@H](O)[C@H]2O)c(=O)n1", "method": "nucleotide incorporation / radiometric", "value": ">400 µM"}
{"structure": "Cn1cc(NC(=O)c2cc(NC(=O)c3cc(NC(=O)CCCCCCCCCCCCCCCCCCCCCCC(=O)Nc4cc(C(=O)Nc5cc(C(=O)Nc6cc(C(=O)NCCC(=N)N)n(C)c6)n(C)c5)n(C)c4)cn3C)cn2C)cc1C(=O)NCCC(=N)N", "method": "nucleotide incorporation", "value": ">500 µM"}
{"structure": "CCNc1cccnc1N1CCN(C(=O)c2cc3ccccc3o2)CC1", "method": "nucleotide incorporation", "value": "<100 µM"}
{"structure": "O=C1NCC(CCC2(C(F)(F)F)OC(=O)Nc3ccc(Cl)cc32)O1", "method": "nucleotide incorporation", "value": "1.9 µM"}
{"structure": "CC(C)Nc1cccnc1OCCN(C)C(=O)c1cc2ccccc2[nH]1", "method": "nucleotide incorporation", "value": "<100 µM"}
{"structure": "CCN1c2ncc(CCOc3ccc(Nc4ccc(C(=O)O)cn4)cc3C)cc2C(=O)N(C)c2cccnc21", "strain or isolate": "IIIB", "mutations": "RT-K103N Y181C", "method": "nucleotide incorporation / radiometric", "value": "<0.05 µM"}
{"structure": "CC(C)(C)Nc1ccnnc1N1CCN(C(=O)c2cc3cc(OCc4ccccc4)ccc3[nH]2)CC1", "method": "nucleotide incorporation", "value": "<100 µM"}
{"structure": "CCN1c2ncc(CCOc3ccc(NC(=O)/C=C/C(=O)O)cc3C)cc2C(=O)N(C)c2cccnc21", "strain or isolate": "IIIB", "method": "nucleotide incorporation / radiometric", "value": "<0.05 µM"}
{"structure": "C=CC1(C(F)(F)F)OC(=O)Nc2ccc(Cl)cc21", "strain or isolate": "A17", "mutations": "RT-K103N Y181C", "method": "nucleotide incorporation", "value": "30 µM"}